Experimental data: ChEMBL document CHEMBL1255295, “Convergent in vivo and in vitro selection of ceftazidime resistance mutations at position 167 of CTX-M-3 beta-lactamase in hypermutable Escherichia coli strains” (2008)

Columns and labels:
Format in all cases: functional
Escherichia coli [1] = assay: Antimicrobial activity against Escherichia coli EPI300 harboring GM2995 pCC1 carrying beta-lactamase CTX-M-3 gene by agar dilution method
Escherichia coli [2] = assay: Antimicrobial activity against Escherichia coli EPI300 harboring GM2995 pCC1-1224 carrying CTX-M-3 beta-lactamase gene from by agar dilution method
Escherichia coli [3] = assay: Antimicrobial activity against Escherichia coli EPI300 Irk1224 type 1 mutant harboring beta-lactamase CTX-M-3 gene by agar dilution method

Measured: MIC

CO/N=C(\C(=O)N[C@@H]1C(=O)N2C(C(=O)O)=C(COC(C)=O)CS[C@H]12)c1csc(N)n1 [CEFOTAXIME]
8 µg/mL: Escherichia coli [1] | Escherichia coli [2] | Escherichia coli [3]
